Results of unrelated studies side by side (data: NIAID ChemDB).

Common to all: tests in culture; species: Cowpox virus; read-out: EC50

An empty or dashed field is not shown.

compound	strain or isolate	cell line	result
Nc1nc(=O)n([C@@H]2C=C(CO)[C@@H](O)[C@H]2O)cc1Br	Brighton	-	100 µg/mL
CC(=O)N[C@H]1C[C@@H](n2cnc3c(N)ncnc32)[C@H](O)[C@@H]1O	-	HFF	>100 µg/mL
Nc1ccn(C[C@@H](CO)OCP(=O)(O)O)c(=O)n1	-	VERO	7.5 µg/mL
Cc1cc(C)nc(NS(=O)(=O)c2ccc(N=C3C(=O)N(C(=O)c4ccccc4)c4ccccc43)cc2)n1	-	HFF	86.5 µM
O=c1[nH]cnc2c1ncn2[C@@H]1C=C(CO)[C@@H](O)[C@H]1O	CPX	MK2	>100 µg/mL
Cc1ccc2c(c1)C(=Nc1ccc(S(=O)(=O)Nc3nc(C)cc(C)n3)cc1)C(=O)N2	-	HFF	96 µM
CCCCCCCCCCCCCCCCOCCCOP(=O)(O)COCCn1cnc2c(=O)[nH]c(N)nc21	Brighton	HFF	0.12 µM
Nc1ncnc2c1ncn2[C@@H]1O[C@H](CO)[C@@H](O)[C@@H]1O	Brighton	VERO	6.1 µM
Nc1nc(=O)n([C@@H]2C=C(CO)[C@@H](O)[C@H]2O)cc1F	CPX	VERO	1.35 µg/mL
Nc1nccc2c1ncn2[C@@H]1C[C@H](CO)[C@@H](O)[C@H]1O	-	VERO	>100 µg/mL
Nc1nc(=O)n([C@@H]2C=C(CO)[C@@H](O)[C@H]2O)cc1I	Brighton	-	8.7 µg/mL
Cc1nc2c(N)ncnc2n1[C@@H]1O[C@H](CO)[C@@H](O)[C@H]1O	Brighton	VERO	>1000 µM
Nc1ccn(C[C@H]2COP(=O)(O)CO2)c(=O)n1	-	VERO	52 µg/mL
Nc1ncnc2c1nc(Cl)n2[C@@H]1O[C@H](CO)[C@@H](O)[C@H]1O	Brighton	VERO	>100 µM
CC(=O)N1C(=O)C(=Nc2ccc(S(=O)(=O)Nc3nc(C)cc(C)n3)cc2)c2cc(Cl)ccc21	-	HFF	>300 µM
CO[C@H]1[C@@H](O)[C@H](n2cnc3c(N)ncnc32)O[C@@H]1CO	Brighton	VERO	24 µM
Nc1ncc2c(ncn2COC(CO)CO)n1	Brighton	VERO	35 µM
Nc1nc(=O)n([C@@H]2O[C@H](CO)[C@@H](O)[C@@H]2O)cc1Cl	Brighton	VERO	100 µM
Nc1nccc2c1ncn2[C@@H]1C=C(CO)[C@@H](O)[C@H]1O	-	VERO	>100 µg/mL

Lines come from different laboratories, so protocols vary. ECn: concentration that inhibits the pathogen or its effect by n%.